Measured values from several laboratories, pooled; numbers as filed in NIAID ChemDB.

All rows: growth or infection tests; organism: Aspergillus niger

Lines come from different laboratories, so protocols vary. ECn: concentration that inhibits the pathogen or its effect by n%. MIC50, MIC90 and the like: level of inhibition, or share of isolates inhibited. Blank or dashed fields: not listed here. Zones are inhibition diameters on agar. Inhibition is in % at the dose shown (toxicity tests: loss of growth or viability).

structure | strain or isolate | method | read-out | dose | value
Cc1cc(C=Nc2ccc(N=Cc3cc(C)cc(/C=N/Nc4nc5ccccc5s4)c3O)cc2)c(O)c(/C=C/Nc2nc3ccccc3s2)c1 | - | turbidity | inhibition | 100 µg/mL | 50.94%
CS(=O)(=O)c1ccc(C2CC(c3ccccc3)=NN2c2ccccc2)cc1 | NCIM 596 | broth dilution | inhibition | 2000 µg/mL | 47.2%
Cc1ccc2nc(Cl)c(C3SC(=Cc4ccccc4Cl)C(=O)N3n3c(-c4ccc(Cl)cc4)nc4ccccc4c3=O)cc2c1 | - | broth dilution / visual reading | MIC99 | - | 500 µg/mL
CCCCCOc1ccc(-c2cc(-c3ccc(C(=O)N[C@H]4C[C@@H](O)[C@@H](O)NC(=O)[C@@H]5[C@@H](O)[C@@H](C)CN5C(=O)[C@H]([C@H](O)CC(N)=O)NC(=O)[C@H]([C@H](O)[C@@H](O)c5ccc(O)c(OS(=O)(=O)O)c5)NC(=O)[C@@H]5C[C@@H](O)CN5C(=O)[C@H]([C@@H](C)O)NC4=O)cc3)no2)cc1 | - | broth dilution | MIC50 | - | 0.03 µg/mL
CSc1ccc(C2CC(c3cccc(N)c3)=NN2c2ccccc2)cc1 | NCIM 596 | broth dilution | inhibition | 2000 µg/mL | 84.37%
Cc1nc(NC(=O)c2ccc(F)cc2)sc1C(=O)N/N=C1/S/C(=C/c2ccc(Cl)cc2)C(=O)N1c1ccccc1 | MTCC 282 | - | MIC50 | - | 1000 µg/mL
O=C(CSc1nc2ccccc2[nH]1)c1c([O-])on[n+]1-c1ccccc1 | - | agar diffusion | EC50 | - | >20 µg/mL
Brc1ccc(CO/N=C2\c3ccccc3OCC2n2cncn2)cc1 | ATCC 16401 | - | MFC | - | 16 µg/mL
Cc1ccc2nc(Cl)c(C3SC(=Cc4cccc(O)c4)C(=O)N3n3c(-c4ccc(Cl)cc4)nc4ccccc4c3=O)cc2c1 | - | broth dilution / visual reading | MIC99 | - | 500 µg/mL
CCOc1ccc(C2=NN(c3ccccc3)C(c3ccc(SC)cc3)C2)cc1 | NCIM 596 | broth dilution | inhibition | 2000 µg/mL | 85.29%
N=C1O/C(=C/c2ccc(Cl)cc2)C(=O)N1CCCNc1ccnc2cc(Cl)ccc12 | - | agar diffusion | zone | 200 µg/mL | 26 mm
COc1ccccc1/C=C1/S/C(=N/NC(=O)c2sc(NC(=O)c3ccc(F)cc3)nc2C)N(c2ccccc2)C1=O | MTCC 282 | - | MIC50 | - | 50 µg/mL
Cc1ccc2nc(Cl)c(C3SC(=Cc4ccc([N+](=O)[O-])cc4)C(=O)N3n3c(-c4ccc(Cl)cc4)nc4ccccc4c3=O)cc2c1 | - | broth dilution / visual reading | MIC99 | - | 1000 µg/mL
C=CCSS(=O)CC=C | ATCC 16888 | broth dilution | MIC50 | - | 125 µg/mL
O=c1ccc2c(ccc3nc(N4CCN(c5ccccc5Cl)CC4)sc32)o1 | MTCC 282 | - | MIC100 | - | 100 µg/mL
C/C(=N\NC(=S)Nc1cccc(Cl)c1)c1c(O)ccc2c(C)cc(=O)oc12 | - | agar diffusion / agar | inhibition | 100 µg/mL | 87.21%
CC1=C(Cl)C(O)=CC(=O)C12Oc1cc(O)c(Cl)c(C)c1C2=O | MTCC 282 | agar diffusion | zone | 25 µg/mL | 21 mm
Cc1ccc(C=C2SC(c3cc4cc(C)ccc4nc3Cl)N(n3c(-c4ccc(Cl)cc4)nc4ccccc4c3=O)C2=O)cc1 | - | broth dilution / visual reading | MIC99 | - | 1000 µg/mL
CS(=O)(=O)c1nc(N)c(C#N)c(/C=C\c2ccccc2)n1 | MTCC 282 | agar diffusion | zone | 25 µg/mL | 18 mm
Cc1nc(NC(=O)c2ccc(F)cc2)sc1C(=O)N/N=C1/S/C(=C/c2ccccc2O)C(=O)N1c1ccccc1 | MTCC 282 | - | MIC50 | - | 50 µg/mL
C[C@@H]1C/C=C/C=C/C=C/C=C/[C@H](OC2O[C@H](C)[C@@H](O)[C@H](N)[C@@H]2O)CC2O[C@](O)(C[C@@H](O)C[C@H]3O[C@@H]3/C=C/C(=O)O1)C[C@H](O)[C@H]2C(=O)O | Species complex | - | MIC90 | - | 8 µg/mL
CC1(O)OC(=O)C(c2ccc(OCC(O)(Cn3cncn3)c3ccc(F)cc3F)cc2)=C1c1ccc(F)cc1F | ATCC 16404 | broth dilution | MIC50 | - | 16 µg/mL
Nc1ncccc1-c1cc(Cc2ccc(COc3ccccn3)cc2)no1 | - | broth dilution | MIC50 | - | 0.03 µg/mL
CSC1=NC(c2ccccc2[N+](=O)[O-])C(C#N)=C(N)N1 | MTCC 282 | agar diffusion | zone | 100 µg/mL | 15 mm
CN(C)C=O | - | - | zone | 50 µg/mL | 6 mm
Cc1nc(NC(=O)c2ccc(F)cc2)sc1C(=O)N/N=C1/S/C(=C/c2ccc([N+](=O)[O-])cc2)C(=O)N1c1ccccc1 | MTCC 282 | - | MIC50 | - | 500 µg/mL
Cn1c(=O)ccc2c3sc(N4CCN(C(c5ccccc5)c5ccc(Cl)cc5)CC4)nc3ccc21 | MTCC 282 | - | MIC100 | - | 62.5 µg/mL
Cc1ccc(-[n+]2noc([O-])c2C(=O)CSc2nc3ccccc3[nH]2)cc1C | - | agar diffusion | inhibition | 20 µg/mL | 0%
Cc1ccc2nc(Cl)c(C3SC(=Cc4cccc([N+](=O)[O-])c4)C(=O)N3n3c(-c4ccc(Cl)cc4)nc4ccccc4c3=O)cc2c1 | - | broth dilution / visual reading | MIC99 | - | 200 µg/mL
Clc1ccc(CO/N=C2\c3ccccc3OCC2n2cncn2)c(Cl)c1 | ATCC 16401 | - | MFC | - | 16 µg/mL
Cc1ccc(-[n+]2noc([O-])c2C(=O)CSc2nc3ccccc3[nH]2)cc1Cl | - | agar diffusion | EC50 | - | >20 µg/mL
CSC1=NC(c2ccccc2O)C(C#N)=C(N)N1 | MTCC 282 | agar diffusion | zone | 50 µg/mL | 15 mm
Cc1ccccc1/C=C1/S/C(=N/NC(=O)c2sc(NC(=O)c3ccc(F)cc3)nc2C)N(c2ccccc2)C1=O | MTCC 282 | - | MIC50 | - | 25 µg/mL
NCCCNc1ccnc2cc(Cl)ccc12 | - | agar diffusion | zone | 400 µg/mL | 53 mm
COc1ccc(C=C2SC(c3cc4cc(C)ccc4nc3Cl)N(n3c(-c4ccc(Cl)cc4)nc4ccccc4c3=O)C2=O)cc1 | - | broth dilution / visual reading | MIC99 | - | 500 µg/mL
CS(=O)(=O)c1nc(N)c(C#N)c(-c2ccccc2[N+](=O)[O-])n1 | MTCC 282 | agar diffusion | zone | 50 µg/mL | 19 mm
FC(F)(F)c1nc(OCc2nc(-c3ccc(Br)cc3)n[nH]2)c2ccccc2n1 | MTCC 282 | - | MIC100 | - | 12.5 µg/mL
O=C1O/C(=C\c2ccc(OCC(O)(Cn3cncn3)c3ccc(F)cc3F)cc2)C(c2ccc(F)cc2F)=C1c1ccc(Cl)cc1 | ATCC 16404 | broth dilution | MIC50 | - | 4 µg/mL
CSC1=NC(c2cccc([N+](=O)[O-])c2)C(C#N)=C(N)N1 | MTCC 282 | agar diffusion | zone | 50 µg/mL | 14 mm
COc1ccc(C2=NN(c3ccccc3)C(c3ccc(SC)cc3)C2)cc1OC | NCIM 596 | broth dilution | inhibition | 2000 µg/mL | 9.65%
COc1ccccc1-[n+]1noc([O-])c1C(=O)CSc1nc2ccccc2[nH]1 | - | agar diffusion | EC50 | - | >20 µg/mL
Fc1ccc(-c2n[nH]c(COc3nc(C(F)(F)F)nc4ccccc34)n2)cc1 | MTCC 282 | - | MIC100 | - | 25 µg/mL
CSc1ccc(C2CC(c3ccc(Br)cc3)=NN2c2ccccc2)cc1 | NCIM 596 | broth dilution | inhibition | 2000 µg/mL | 88.54%
c1ccc(CO/N=C2/c3ccccc3OCC2n2cncn2)cc1 | ATCC 16401 | - | MFC | - | >64 µg/mL
O=C1NC2(CO1)O/C(=C/c1ccc(Cl)cc1)C(=O)N2CCCNc1ccnc2cc(Cl)ccc12 | - | agar diffusion | zone | 200 µg/mL | 17 mm
Cc1ccc(C)c(-[n+]2noc([O-])c2C(=O)CSc2nc3ccccc3[nH]2)c1 | - | agar diffusion | EC50 | - | >20 µg/mL
O=Cc1ccc(OCC(O)(Cn2cncn2)c2ccc(F)cc2F)cc1 | ATCC 16404 | broth dilution | MIC50 | - | 128 µg/mL
c1ccc(CO/N=C2\c3ccccc3OCC2n2cnnc2)cc1 | ATCC 16401 | - | MFC | - | >64 µg/mL
COc1ccc(-c2nc(S(C)(=O)=O)nc(N)c2C#N)cc1 | MTCC 282 | agar diffusion | zone | 100 µg/mL | 21 mm
Cc1ccc(-c2n[nH]c(COc3ncnc4ccccc34)n2)cc1 | MTCC 282 | - | MIC100 | - | 12.5 µg/mL
COc1ccc(C2=C(c3ccc(OCC(O)(Cn4cncn4)c4ccc(F)cc4F)cc3)C(=O)OC2)cc1 | ATCC 16404 | broth dilution | MIC50 | - | 8 µg/mL
CSC1=NC(c2ccc(Cl)cc2)C(C#N)=C(N)N1 | MTCC 282 | agar diffusion | zone | 50 µg/mL | 15 mm
Cc1ccc(C2=C(c3ccc(OCC(O)(Cn4cncn4)c4ccc(F)cc4F)cc3)C(=O)OC2)cc1 | ATCC 16404 | broth dilution | MIC50 | - | 4 µg/mL
O=c1ccc2c(ccc3nc(N4CCN(c5ccccn5)CC4)sc32)o1 | MTCC 282 | - | MIC100 | - | 200 µg/mL
CSc1ccc(C2CC(c3ccc(Cl)cc3)=NN2c2ccccc2)cc1 | NCIM 596 | broth dilution | inhibition | 2000 µg/mL | 92.99%
Cc1nc(OCc2nc(-c3cccs3)n[nH]2)c2ccccc2n1 | MTCC 282 | - | MIC100 | - | 12.5 µg/mL
Cn1c(=O)ccc2c3sc(N4CCN(c5ccc(F)cc5)CC4)nc3ccc21 | MTCC 282 | - | MIC100 | - | 62.5 µg/mL

Again, the opening 4 rows:

structure	strain or isolate	method	read-out	dose	value
Cc1cc(C=Nc2ccc(N=Cc3cc(C)cc(/C=N/Nc4nc5ccccc5s4)c3O)cc2)c(O)c(/C=C/Nc2nc3ccccc3s2)c1	-	turbidity	inhibition	100 µg/mL	50.94%
CS(=O)(=O)c1ccc(C2CC(c3ccccc3)=NN2c2ccccc2)cc1	NCIM 596	broth dilution	inhibition	2000 µg/mL	47.2%
Cc1ccc2nc(Cl)c(C3SC(=Cc4ccccc4Cl)C(=O)N3n3c(-c4ccc(Cl)cc4)nc4ccccc4c3=O)cc2c1	-	broth dilution / visual reading	MIC99	-	500 µg/mL
CCCCCOc1ccc(-c2cc(-c3ccc(C(=O)N[C@H]4C[C@@H](O)[C@@H](O)NC(=O)[C@@H]5[C@@H](O)[C@@H](C)CN5C(=O)[C@H]([C@H](O)CC(N)=O)NC(=O)[C@H]([C@H](O)[C@@H](O)c5ccc(O)c(OS(=O)(=O)O)c5)NC(=O)[C@@H]5C[C@@H](O)CN5C(=O)[C@H]([C@@H](C)O)NC4=O)cc3)no2)cc1	-	broth dilution	MIC50	-	0.03 µg/mL